Consider 34 substances from publication PMC12366332 (Applied and Environmental Microbiology, 2025).

HELM strings list residues between dots; [ac] is acetyl, [am] amide, other brackets name non-standard units.

This data set in a line: general procedure: Fmoc solid-phase peptide synthesis; Fmoc-Rink-ChemMatrix resin (0.69 mmol/g) or Fmoc-Rink-MBHA resin (0.56 mmol/g). As to conditions: whole synthesis.
Take Ac‐KKLFKKIK(COC3H7)KYL‐NH2: the “final HPLC purity” value is more than 99%.
As to “PEPTIDE1{[ac].K.K.[Lys(But)].[dF].K.K.I.L.K.Y.L.[am]}$$$$V2.0”, the “final HPLC purity” value is more than 99%.
Next, KKLFKkILKYL-NH2: 80%; “PEPTIDE1{[But].K.K.L.[dF].K.K.I.L.K.Y.L.[am]}$$$$V2.0”: more than 99%.
Regarding KKlFKKILKYL-NH2, the “final HPLC purity” value is recorded as 85%.
On to “PEPTIDE1{[ac].K.K.L.[dF].K.K.I.K.K.Y.L.[am]}|PEPTIDE2{[But]}$PEPTIDE1,PEPTIDE2,9:R3-1:R2$$$V2.0”, for which the “final HPLC purity” value is given as more than 99%.
In the case of “PEPTIDE1{[ac].K.K.L.[dF].K.K.I.L.K.Y.L.[am]}|PEPTIDE2{[But]}$PEPTIDE1,PEPTIDE2,7:R3-1:R2$$$V2.0”, the “final HPLC purity” value is listed as more than 99%.
In the case of KKLFKKILKKL-NH2, the “final HPLC purity” value is reported as more than 99%.
Ac-KKLFKKIK(COC5H11)KYL-NH2: the “final HPLC purity” value is given as more than 99%.
With KKLFKKILKYL-NH2, the “final HPLC purity” value was more than 99%.
KKLFKKILKFL-NH2: the “final HPLC purity” value is reported as more than 99%.
As to KKLFKKILKVL-NH2, the “final HPLC purity” value was 82%.
For the substance “PEPTIDE1{[ac].K.K.L.[D-Lys(But)].K.K.I.L.K.Y.L.[am]}$$$$V2.0”, the “final HPLC purity” value is more than 99%.
Turning to “PEPTIDE1{[ac].K.K.L.[D-Lys(But)].K.K.I.L.I.Y.L.[am]}$$$$V2.0”, the “final HPLC purity” value was 91%.
Next, “PEPTIDE1{[ac].K.K.L.[dF].K.K.K.L.K.Y.L.[am]}|PEPTIDE2{[Hex]}$PEPTIDE1,PEPTIDE2,8:R3-1:R2$$$V2.0”: more than 99%.
On to Ac-KKLfKKILKYK(COC3H7)-NH2, for which the “final HPLC purity” value is more than 99%.
Regarding “PEPTIDE1{[ac].K.K.L.[dF].K.K.I.L.K.Y.K.[am]}|PEPTIDE2{[Hex]}$PEPTIDE1,PEPTIDE2,12:R3-1:R2$$$V2.0”, the “final HPLC purity” value is reported as more than 99%.
For “PEPTIDE1{[ac].K.K.L.[dF].K.K.I.K.K.Y.L.[am]}|PEPTIDE2{[Lau]}$PEPTIDE1,PEPTIDE2,9:R3-1:R2$$$V2.0”, the “final HPLC purity” value is on record as more than 99%.
Turning to KkLFKKILKYL-NH2, the “final HPLC purity” value is on record as more than 99%.
With Ac-KKLFKKILKK(COC5H11)L-NH2, the “final HPLC purity” value is more than 99%.
The value for Ac-LKLFKKILKVL-NH2 was more than 99%; that for KKLfKKILKYL-NH2 was 84%; that for Ac-KK(COC11H23)LFKKILKYL-NH2 was more than 99%.
The value for “PEPTIDE1{[ac].K.K.L.[dF].K.K.I.L.K.Y.L.[am]}|PEPTIDE2{[But]}$PEPTIDE1,PEPTIDE2,2:R3-1:R2$$$V2.0” was more than 99%; that for “PEPTIDE1{[ac].K.K.L.H.K.K.I.L.K.K.L.[am]}|PEPTIDE2{[But]}$PEPTIDE1,PEPTIDE2,11:R3-1:R2$$$V2.0” was more than 99%; that for “PEPTIDE1{[ac].K.K.L.[dF].K.K.[Lys(But)].L.K.Y.L.[am]}$$$$V2.0” was more than 99%.
Regarding “PEPTIDE1{[ac].K.K.L.[dF].K.K.I.L.K.Y.L.[am]}|PEPTIDE2{[But]}$PEPTIDE1,PEPTIDE2,10:R3-1:R2$$$V2.0”, the “final HPLC purity” value is on record as more than 99%.
Consider “PEPTIDE1{[ac].K.K.K.[dF].K.K.I.L.K.Y.L.[am]}|PEPTIDE2{[Lau]}$PEPTIDE1,PEPTIDE2,4:R3-1:R2$$$V2.0”, for which the “final HPLC purity” value was more than 99%.
In the case of “PEPTIDE1{[ac].K.K.K.[dF].K.K.K.L.K.Y.L.[am]}|PEPTIDE2{[But]}$PEPTIDE1,PEPTIDE2,4:R3-1:R2$$$V2.0”, the “final HPLC purity” value was more than 99%.
Next, “PEPTIDE1{[ac].K.K.L.[dF].K.K.I.L.K.Y.L.[am]}|PEPTIDE2{[But]}$PEPTIDE1,PEPTIDE2,6:R3-1:R2$$$V2.0”: more than 99%; Ac-KKLFKKILKK(COC3H7)L-NH2: more than 99%.
As for cyclo(LLKKKWKKLQ), the “final HPLC purity” value is listed as more than 99%.
Take FKLFKKILKVL-NH2: the “final HPLC purity” value is recorded as more than 99%.
Regarding “PEPTIDE1{[ac].K.K.L.[dF].K.K.I.L.K.K.L.[am]}|PEPTIDE2{[But]}$PEPTIDE1,PEPTIDE2,11:R3-1:R2$$$V2.0”, the “final HPLC purity” value was more than 99%.
